A mixed list of measured activities; the numbers were collected in NIAID ChemDB.

All rows: whole-cell or culture tests; agent: HIV-1

An empty or dashed field is not shown. ECn is the concentration giving n% inhibition of infection, replication or growth. Fold resistance: result on the changed form divided by that on wild type. Lines come from different laboratories, so protocols vary.

{"SMILES": "O=C1Nc2ccc(F)c(F)c2[C@@](C#CC2CC2)(C(F)(F)F)N1", "mutations": "RT-G190S", "measure": "fold resistance", "result": "58.9"}
{"SMILES": "CCc1cc(C#N)cc(C(=O)c2cc(Cl)ccc2OCC(=O)Nc2ccc(S(N)(=O)=O)cc2C)c1", "strain or isolate": "HXB2", "mutations": "RT-K103N", "cells": "HeLa + HELA CD4+", "read by": "β-galactosidase", "measure": "fold resistance", "result": "~1"}
{"SMILES": "COc1ccc(S(=O)(=O)N(CC(C)C)C(=O)C(=O)C(=O)[C@@H](Cc2ccccc2)NC(=O)OC(C)(C)C)cc1", "strain or isolate": "IIIB", "cells": "CEM", "read by": "p24", "measure": "EC90", "result": "1 µM"}
{"SMILES": "Cc1cc2[nH]cnc2cc1NC(=O)COc1ccc(Cl)cc1C(=O)c1cc(F)cc(C(F)(F)F)c1", "strain or isolate": "HXB2", "mutations": "RT-Y181C", "cells": "HeLa + HELA CD4+", "read by": "β-galactosidase", "measure": "fold resistance", "result": "~1"}
{"SMILES": "O=C1Nc2ccc(F)c(F)c2[C@@](/C=C/C2CC2)(C(F)(F)F)N1", "mutations": "RT-K103N", "measure": "EC90", "result": "0.021 µM"}
{"SMILES": "Cc1noc(CN2CCn3c(nc(C(=O)NCc4ccc(F)cc4)c(O)c3=O)C2(C)C)n1", "cells": "MT-4", "read by": "p24", "measure": "EC95", "result": "<1 µM"}
{"SMILES": "CC(C)CN(CC(O)CCN1CCCC[C@H]1C(=O)NC(C)(C)C)S(=O)(=O)c1ccccc1", "strain or isolate": "IIIB", "cells": "CEM", "read by": "p24", "measure": "EC90", "result": "1 µM"}
{"SMILES": "Cc1cc(S(N)(=O)=O)ccc1NC(=O)COc1ccc(Cl)cc1C(=O)c1cc(F)cc(C#N)c1", "strain or isolate": "HXB2", "mutations": "RT-V108I", "cells": "HeLa + HELA CD4+", "read by": "β-galactosidase", "measure": "fold resistance", "result": "~1"}
{"SMILES": "O=C(N[C@@H](Cc1ccccc1)C(=O)C(F)(F)C(Cc1ccccc1)NS(=O)(=O)c1ccccc1)O[C@H]1CCOC1", "strain or isolate": "IIIB", "cells": "CEM", "read by": "p24", "measure": "EC90", "result": "1 µM"}
{"SMILES": "CN(C)C(=O)C(=O)N1CCn2c(nc(C(=O)NCc3ccc(F)cc3)c(O)c2=O)C1", "cells": "MT-4", "read by": "p24", "measure": "EC95", "result": "<50 µM"}
{"SMILES": "O=C(N[C@@H](Cc1ccccc1)C(=O)C(F)(F)CN(Cc1ccccc1)S(=O)(=O)c1ccccc1)OC1COCOC1", "strain or isolate": "IIIB", "cells": "CEM", "read by": "p24", "measure": "EC90", "result": "1 µM"}
{"SMILES": "COc1ccnc2[nH]cc(C(=O)C(=O)N3C4CC3CN(C(=O)c3ccccc3)C4)c12", "strain or isolate": "ZM214", "cells": "TZM-bl", "read by": "luciferase", "measure": "EC99", "result": ">>250 µM"}
{"SMILES": "O=S(=O)(c1ccccc1)N(CC(O)CN(CC1CCCC1)S(=O)(=O)c1ccc(O)cc1)CC1CCCC1", "strain or isolate": "IIIB", "cells": "CEM", "read by": "p24", "measure": "EC90", "result": "1 µM"}
{"SMILES": "Cc1cc(C#N)cc(C(=O)c2cc(Cl)ccc2OCC(=O)Nc2ccc(S(N)(=O)=O)cc2C)c1", "strain or isolate": "HXB2", "mutations": "RT-V108I Y181C", "cells": "HeLa + HELA CD4+", "read by": "β-galactosidase", "measure": "fold resistance", "result": "~1"}
{"SMILES": "COc1ccc(S(=O)(=O)N(CC(C)C)C[C@@H](O)CCN(CC2CCCC2)S(=O)(=O)Cc2cc[nH]c2)cc1", "strain or isolate": "IIIB", "cells": "CEM", "read by": "p24", "measure": "EC90", "result": "1 µM"}
{"SMILES": "COc1ccnc2[nH]cc(C(=O)C(=O)N3C4CCC3CN(C(=O)c3ccccc3)C4)c12", "strain or isolate": "6535", "cells": "TZM-bl", "read by": "luciferase", "measure": "EC90", "result": "1.4 µM"}
{"SMILES": "Cc1ccc(C)n1-c1ccc(C(=O)O)c(O)c1", "strain or isolate": "RU570 R5 CLADE G", "cells": "PBMC + MT-2", "read by": "p24", "measure": "EC90", "result": "209 µM"}
{"SMILES": "Cc1nc2cccc(CS(=O)(=O)N(CC3CCCC3)C[C@@H](O)CN(CCc3ccccc3)C(=O)c3ccccc3)c2o1", "strain or isolate": "IIIB", "cells": "CEM", "read by": "p24", "measure": "EC90", "result": "1 µM"}
{"SMILES": "CCC(=O)c1ccc(F)c([C@@H]2C[C@@H]2NC(=O)Nc2ccc(C#N)cn2)c1O", "strain or isolate": "LAI", "mutations": "NNRTI-resistant (RT Y181I)", "cells": "TZM-bl", "read by": "β-galactosidase / luminescence", "measure": "fold resistance", "result": "≥100"}
{"SMILES": "O=C(c1ccccc1)N(CCc1ccccc1)C[C@H](O)CN(CC1CCCC1)S(=O)(=O)C1CCCCC1", "strain or isolate": "IIIB", "cells": "CEM", "read by": "p24", "measure": "EC90", "result": "1 µM"}
{"SMILES": "Cc1cc(S(N)(=O)=O)ccc1NC(=O)COc1ccc(Cl)cc1C(=O)c1cccc(C#N)n1", "strain or isolate": "HXB2", "mutations": "RT-P225H", "cells": "HeLa + HELA CD4+", "read by": "β-galactosidase", "measure": "fold resistance", "result": "~1"}
{"SMILES": "C/C=C/CSc1cc(NC(=S)c2ccsc2C)ccc1Cl", "strain or isolate": "NL4-3", "mutations": "RT-K103N", "cells": "CEM + CEM-SS", "read by": "p24", "measure": "fold resistance", "result": "60"}
{"SMILES": "CC1(C)NCCn2c1nc(C(=O)NCc1ccc(F)cc1)c(O)c2=O", "cells": "MT-4", "read by": "p24", "measure": "EC95", "result": "<50 µM"}
{"SMILES": "Cc1cc(OCCCS(N)(=O)=O)ccc1NC(=O)COc1ccc(Cl)cc1C(=O)c1cc(F)cc(C(F)(F)F)c1", "strain or isolate": "HXB2", "mutations": "RT-Y181C", "cells": "HeLa + HELA CD4+", "read by": "β-galactosidase", "measure": "fold resistance", "result": "~1"}
{"SMILES": "CCN1CCn2c(nc(C(=O)NCc3ccc(F)cc3)c(O)c2=O)C(N(C)C(=O)C(=O)N(C)C)C1", "cells": "MT-4", "read by": "p24", "measure": "EC95", "result": "<1 µM"}
{"SMILES": "Cc1cc(S(N)(=O)=O)ccc1NC(=O)COc1ccc(Cl)cc1C(=O)c1cc(F)cc(C(F)(F)F)c1", "strain or isolate": "HXB2", "mutations": "RT-E138K", "cells": "HeLa + HELA CD4+", "read by": "β-galactosidase", "measure": "fold resistance", "result": "~1"}
{"SMILES": "CC(C)CN(CC(O)Cc1ccccc1C(=O)NC(C)(C)C)S(=O)(=O)c1ccccc1", "strain or isolate": "IIIB", "cells": "CEM", "read by": "p24", "measure": "EC90", "result": "1 µM"}
{"SMILES": "CNC(=O)CN1CCn2c(nc(C(=O)NCc3ccc(F)cc3)c(O)c2=O)C1(C)C", "cells": "MT-4", "read by": "p24", "measure": "EC95", "result": "<1 µM"}

The first 3 rows once more:

SMILES | strain or isolate | mutations | cells | read by | measure | result
O=C1Nc2ccc(F)c(F)c2[C@@](C#CC2CC2)(C(F)(F)F)N1 | - | RT-G190S | - | - | fold resistance | 58.9
CCc1cc(C#N)cc(C(=O)c2cc(Cl)ccc2OCC(=O)Nc2ccc(S(N)(=O)=O)cc2C)c1 | HXB2 | RT-K103N | HeLa + HELA CD4+ | β-galactosidase | fold resistance | ~1
COc1ccc(S(=O)(=O)N(CC(C)C)C(=O)C(=O)C(=O)[C@@H](Cc2ccccc2)NC(=O)OC(C)(C)C)cc1 | IIIB | - | CEM | p24 | EC90 | 1 µM